Pooled drug test results. Numbers come from NIAID ChemDB, via PubChem.

Shared fields: growth or infection tests; agent: Herpes simplex virus 2; measure: EC50

Rows are shuffled and stem from different studies. ECn: concentration that inhibits the pathogen or its effect by n%. a–b is a range or a potency band. Blank or dashed fields: not listed here.

structure | cells | strain or isolate | result
Nc1ccn(CC=C(CO)CO)c(=O)n1 | - | - | >100 µg/mL
Cc1cccn2c(C3OCCS3)cnc12 | E6SM | G | >1000 µM
Nc1nc2c(ncn2[C@@H]2C[C@H](CO)[C@H]2CO)c(=O)[nH]1 | - | - | 0.01–0.1 µM
O=c1[nH]c(=O)n([C@H]2O[C@@H](CO)[C@H](O)[C@H]2O)cc1/C=C/Br | - | - | >100 µM
CCCc1cn([C@@H]2O[C@H](COP(=O)(O)O)[C@@H](O)[C@H]2O)c(=O)nc1N | - | LYONS | >400 µg/mL
O=c1[nH]c(=O)n([C@@H]2O[C@H](O)[C@@H](O)[C@@H]2O)cc1C#Cc1ccc2c3cccc4cccc(c5cccc1c52)c43 | VERO | 186 | 0.031 µM
O=c1[nH]cnc2c1ncn2C[C@H]1C[C@H]1CO | VERO | - | >50 µM
Cc1ccn2c(C(SCCc3ccccc3)SCCc3ccccc3)cnc2c1 | E6SM | G | >1000 µM
CC(=O)OC1CC2(CO1)COC(C)(C)O2 | CCL18 | - | >100 µM
O=C1C=CN(COCCO)S(=O)(=O)N1COCCO | E6SM | G | >400 µg/mL
CCCCCc1cn([C@@H]2O[C@H](COP(=O)(O)O)[C@@H](O)[C@H]2O)c(=O)nc1N | - | G | >400 µg/mL
Nc1ccn([C@H]2C[C@](O)(CO)CO2)c(=O)n1 | CCL18 | - | >100 µM
O=C(c1ccc([N+](=O)[O-])cc1)n1c(-c2ccc(Cl)cc2)nc2ccccc21 | - | G | >100 µg/mL
O=c1ccn(C[C@H]2C[C@H]2CO)c(=O)[nH]1 | VERO | - | >50 µM
O=C(c1ccncc1)n1c(-c2ccccc2Cl)nc2ccccc21 | - | G | >20 µg/mL
CNc1ncnc2c1cnn2Cc1cn(CCCCO)nn1 | E6SM | G | >400 µg/mL
N#CC1=CN(COCCO)S(=O)(=O)N=C1N | E6SM | G | >400 µg/mL
O=C(c1ccc([N+](=O)[O-])cc1)n1c(-c2ccccc2)nc2ccccc21 | - | G | >20 µg/mL
[N-]=[N+]=N[C@@H]1C[C@@H](CO)S[C@H]1n1ccc(=O)[nH]c1=O | - | - | >100 µg/mL
CC(=O)NC1C(O)OC(CO)C(O)C1OC1OC(C(=O)[O-])C(OC2OC(CO)C(O)C(OC3OC(C(=O)[O-])C(O)C(O)C3O)C2NC(C)=O)C(O)C1O.[Na+].[Na+] | - | LYONS | >400 µg/mL
Cc1cn(C[C@H]2C[C@H]2CO)c(=O)[nH]c1=O | VERO | - | >50 µM
CC(=O)OCCOCN1C=CC(=O)N(COCCOC(C)=O)S1(=O)=O | E6SM | LYONS | >400 µg/mL
Nc1nc2c(ncn2COCCO)c(=O)[nH]1 | VERO | - | 1.38 µg/mL
CC(=O)OC[C@H]1O[C@@H](n2cc(-c3cc(-c4ccc(C(C)(C)C)cc4)no3)c(=O)[nH]c2=O)CC[C@@H]1O | - | - | 0.03 µg/mL
CC1=C[C@H](n2ccc(N)nc2=O)C[C@]1(C)CO | - | - | >100 µg/mL
Nc1nc2c(ncn2[C@@H]2C=C[C@H](CO)CC2)c(=O)[nH]1 | - | - | 0.1–1 µM
CC(=O)OCCOCN1C=C(C#N)C(N)=NS1(=O)=O | E6SM | LYONS | >400 µg/mL
CC1=C[C@H](n2ccc(N)nc2=O)CC1(CO)CO | - | - | >100 µg/mL
Cc1cn(CC=C(CO)CO)c(=O)[nH]c1=O | - | - | >100 µg/mL
O=C(c1ccncc1)n1c(-c2ccc(O)cc2)nc2ccccc21 | - | G | >4 µg/mL
Nc1nc(=S)n([C@@H]2O[C@H](CO)[C@@H](O)[C@@H]2O)cc1F | - | LYON | 0.16 µg/mL
O=c1[nH]cnc2c1cnn2Cc1cn(CCCCO)nn1 | E6SM | G | >400 µg/mL
Nc1ncnc2c1ncn2C[C@H]1C[C@H]1[C@H](O)CO | VERO | - | >50 µM
CNc1ncnc2c1ncn2[C@H]1S[C@@H](CO)C[C@@H]1N=[N+]=[N-] | - | - | >100 µg/mL
O=C(Nc1ccn([C@H]2C[C@](O)(CO)CO2)c(=O)n1)c1ccccc1 | CCL18 | - | >100 µM
NC1=NC2C(C=CN2CC(CO)CCO)C(=O)N1 | - | - | 0.01–0.1 µM
CCOC(=O)C1=CN(COCCO)S(=O)(=O)NC1=O | E6SM | G | >400 µg/mL
C/C(=C\Cn1ccc(=O)[nH]c1=O)CO | - | - | >100 µg/mL
CC(C)c1cn([C@@H]2OC3COP(=O)(O)OC3[C@H]2O)c(=O)nc1N | - | G | >400 µg/mL
Cc1nc(N(C)C(=O)Cc2ccc(-c3ccccc3F)cc2)sc1S(N)(=O)=O | VERO | G | 0.01 µM
NC(=S)NC1N=C(c2ccccc2)SN1 | VERO | MS | 159.6 µg/mL
O=C(O)c1ccccc1-c1nc2ccccc2n1C(=O)c1ccccc1Br | - | G | >100 µg/mL
CC1(C)OCC2(COC(O)C2)O1 | CCL18 | - | >100 µM
[N-]=[N+]=N[C@H]1C[C@H](CO)S[C@@H]1n1cnc2c(Cl)ncnc21 | - | - | >100 µg/mL
Nc1ncn([C@H]2CC[C@H](CO)O2)c(=O)n1 | - | - | >100 µM
COc1ccccc1-c1nc2ccccc2n1C(=O)c1ccncc1 | - | G | >20 µg/mL
Nc1ccn([C@@H]2C[C@](O)(CO)CO2)c(=O)n1 | CCL18 | - | >100 µM
C/C(=C\Cn1cc(C)c(=O)[nH]c1=O)CO | - | - | >100 µg/mL
Cc1cn([C@@H]2OCC(CO)=C2F)c(=O)[nH]c1=O | - | - | >100 µg/mL
CC12CC[C@]3(C1)[C@@H](CC[C@H]1C(C)(C)CCC[C@@]13C)CC2=O | VERO | - | 14 µg/mL
Cc1ccn2c(C3SCCS3)cnc2c1 | E6SM | G | >1000 µM
CC12CC[C@]3(C1)[C@@H](CC2=O)[C@H](O)C[C@H]1C(C)(C)CCC[C@@]13C | VERO | - | 30 µg/mL
[N-]=[N+]=N[C@@H]1C[C@@H](CO)S[C@H]1n1cnc2c(Cl)ncnc21 | - | - | >100 µg/mL
CC(=O)N[C@H]1C[C@@H](n2cnc3c(N)ncnc32)[C@H](O)[C@@H]1O | HFF | - | >100 µg/mL
Cc1ccn2c(C3OCCO3)cnc2c1 | E6SM | G | >1000 µM
Cc1cn([C@@H]2C[C@](O)(CO)CO2)c(=O)[nH]c1=O | CCL18 | - | >100 µM
OCCCCn1cc(Cn2ncc3c(SCc4ccccc4)ncnc32)nn1 | E6SM | G | >400 µg/mL
Nc1ncnc2c1ccn2[C@@H]1C[C@H](O)[C@@H](O)[C@H]1O | E6SM | TYPE G | >400 µg/mL
CC1(C)OCC2(CC(CO)OC2=O)O1 | CCL18 | - | >100 µM
[N-]=[N+]=N[C@H]1C[C@H](CO)SC1n1cnc2c(N)ncnc21 | - | - | >100 µg/mL
CCOC(=O)C1=CN(COCCOC(C)=O)S(=O)(=O)N=C1N | E6SM | G | >400 µg/mL
Nc1ccn(C[C@H]2COP(=O)(O)CO2)c(=O)n1 | MRC-5 | - | 8.3 µM
CC1(C)CCC[C@@]2(C)[C@H]1C[C@@H](O)C1=CC(=O)[C@@]3(C)CC[C@]12C3 | VERO | - | 14 µg/mL
CCCCCCCCc1cn([C@@H]2O[C@H](COP(=O)(O)O)[C@@H](O)[C@H]2O)c(=O)nc1N | - | G | >400 µg/mL
O=C(c1ccc([N+](=O)[O-])cc1)n1c(-c2ccccc2[N+](=O)[O-])nc2ccccc21 | - | G | >100 µg/mL
CCCCc1cn([C@@H]2O[C@H](COP(=O)(O)O)[C@@H](O)[C@H]2O)c(=O)nc1N | - | 196 | >400 µg/mL
CC1=C[C@H](n2cnc3c(N)ncnc32)C[C@]1(C)CO | - | - | >100 µg/mL

For reference, 8 entries again:

structure | cells | strain or isolate | result
O=C(Nc1ccn([C@H]2C[C@](O)(CO)CO2)c(=O)n1)c1ccccc1 | CCL18 | - | >100 µM
Nc1nc2c(ncn2COCCO)c(=O)[nH]1 | VERO | - | 1.38 µg/mL
O=C(c1ccncc1)n1c(-c2ccc(O)cc2)nc2ccccc21 | - | G | >4 µg/mL
Cc1cn([C@@H]2C[C@](O)(CO)CO2)c(=O)[nH]c1=O | CCL18 | - | >100 µM
O=C(c1ccncc1)n1c(-c2ccccc2Cl)nc2ccccc21 | - | G | >20 µg/mL
Nc1ccn([C@H]2C[C@](O)(CO)CO2)c(=O)n1 | CCL18 | - | >100 µM
CC1=C[C@H](n2ccc(N)nc2=O)CC1(CO)CO | - | - | >100 µg/mL
NC1=NC2C(C=CN2CC(CO)CCO)C(=O)N1 | - | - | 0.01–0.1 µM